PubChem BioAssay AID1259414, Drosophila RNAi Screening Center | 2018
The screen tested about 24,000 reagents; below is a random part of those with a known target gene and a result. Over the whole deposit, about 1,210 (5%) were called active. 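Inactive calls also include excluded dsRNAs with several or no targets, genes unexpressed in JW18, and well A1, regardless of score.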 Entries without a mark were called inactive. The numbers tell different reagents against one gene apart.

- Aim: 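Host factors increasing or decreasing Wolbachia levels in cultured fly cells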 (primary screen)
- Cell system: Drosophila JW18 cells infected with Wolbachia
- Reagent: long dsRNA against Drosophila genes, 0.25 µg dsRNA per well of a 384-well plate
- Time to read-out: 5 days
- Treatment: cells persistently infected with Wolbachia before knock-down; no added drug
- Detection: 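Automated imaging of bacterial rRNA staining divided by host cell count, reported as plate-normalised robust z-score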
- Reading the numbers: Wolbachia per cell robust z: higher = more Wolbachia per host cell than the plate typical
- Rule for the call: 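Hit when robust z is 1.5 or more, or -1.5 or less, in at least two of three replicates; excludes dsRNAs with several or no targets, genes not expressed in JW18 and well A1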

rn #1
- Wolbachia per cell robust z, rep 1: -0.193
- Wolbachia per cell robust z, rep 2: 0.597
- Wolbachia per cell robust z, rep 3: 0.901

rn #2
- Wolbachia per cell robust z, rep 1: 0.126
- Wolbachia per cell robust z, rep 2: 0.141
- Wolbachia per cell robust z, rep 3: 1.12

rn #3
- Wolbachia per cell robust z, rep 1: 0.407
- Wolbachia per cell robust z, rep 2: -0.4
- Wolbachia per cell robust z, rep 3: -0.528

rn #4
- Wolbachia per cell robust z, rep 1: 0.888
- Wolbachia per cell robust z, rep 2: 0.464
- Wolbachia per cell robust z, rep 3: 1.05

rn #5
- Wolbachia per cell robust z, rep 1: -0.779
- Wolbachia per cell robust z, rep 2: -1.32
- Wolbachia per cell robust z, rep 3: -1.36

rn #6
- Wolbachia per cell robust z, rep 1: 0.524
- Wolbachia per cell robust z, rep 2: 0.72
- Wolbachia per cell robust z, rep 3: -4.92

Muc4B #1
- Wolbachia per cell robust z, rep 1: 0.46
- Wolbachia per cell robust z, rep 2: 0.188
- Wolbachia per cell robust z, rep 3: 1.96

Muc4B #2
- Wolbachia per cell robust z, rep 1: -0.257
- Wolbachia per cell robust z, rep 2: 0.885
- Wolbachia per cell robust z, rep 3: 0.286

Muc4B #3
- Wolbachia per cell robust z, rep 1: 1.45
- Wolbachia per cell robust z, rep 2: -0.228
- Wolbachia per cell robust z, rep 3: 1.8

CG33296 #1
- Wolbachia per cell robust z, rep 1: 1.6
- Wolbachia per cell robust z, rep 2: 0.626
- Wolbachia per cell robust z, rep 3: 0.883

CG33296 #2
- Wolbachia per cell robust z, rep 1: -0.213
- Wolbachia per cell robust z, rep 2: 0.954
- Wolbachia per cell robust z, rep 3: 0.574

CG30151 #1
- Wolbachia per cell robust z, rep 1: -0.109
- Wolbachia per cell robust z, rep 2: 0.733
- Wolbachia per cell robust z, rep 3: 0.0617

CG30151 #2
- Wolbachia per cell robust z, rep 1: 0.397
- Wolbachia per cell robust z, rep 2: -0.325
- Wolbachia per cell robust z, rep 3: 0.977

CG13540
- Wolbachia per cell robust z, rep 1: -0.102
- Wolbachia per cell robust z, rep 2: -2.36
- Wolbachia per cell robust z, rep 3: -0.684

ATPsynD #1
- Wolbachia per cell robust z, rep 1: 1.01
- Wolbachia per cell robust z, rep 2: 1.07
- Wolbachia per cell robust z, rep 3: 0.343

ATPsynD #2
- Wolbachia per cell robust z, rep 1: -0.526 (active)
- Wolbachia per cell robust z, rep 2: 2.1
- Wolbachia per cell robust z, rep 3: 2.34

EloA #1
- Wolbachia per cell robust z, rep 1: 0.531
- Wolbachia per cell robust z, rep 2: -1.22
- Wolbachia per cell robust z, rep 3: -0.585

EloA #2
- Wolbachia per cell robust z, rep 1: 0.371
- Wolbachia per cell robust z, rep 2: 0.179
- Wolbachia per cell robust z, rep 3: 0.406

CG31176 #1
- Wolbachia per cell robust z, rep 1: 0.351
- Wolbachia per cell robust z, rep 2: -0.827
- Wolbachia per cell robust z, rep 3: 0.551

CG31176 #2
- Wolbachia per cell robust z, rep 1: -3.57
- Wolbachia per cell robust z, rep 2: 0.226
- Wolbachia per cell robust z, rep 3: 0.0784

Idgf5 #1
- Wolbachia per cell robust z, rep 1: -0.424
- Wolbachia per cell robust z, rep 2: -1.34
- Wolbachia per cell robust z, rep 3: 0.168

Idgf5 #2
- Wolbachia per cell robust z, rep 1: -0.955
- Wolbachia per cell robust z, rep 2: -0.984
- Wolbachia per cell robust z, rep 3: 0.607

nahoda #1
- Wolbachia per cell robust z, rep 1: 0.412
- Wolbachia per cell robust z, rep 2: -0.827
- Wolbachia per cell robust z, rep 3: 0.304

nahoda #2
- Wolbachia per cell robust z, rep 1: 0.558
- Wolbachia per cell robust z, rep 2: 0.929
- Wolbachia per cell robust z, rep 3: 0.867
